Experimental data: PubChem BioAssay AID1259414 (Drosophila RNAi Screening Center, 2018)

Screen: 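Host factors increasing or decreasing Wolbachia levels in cultured fly cells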 (primary screen)
Cells: Drosophila JW18 cells infected with Wolbachia
Reagents: long dsRNA against Drosophila genes, 0.25 µg dsRNA per well of a 384-well plate
Time to read-out: 5 days
Treatment: cells persistently infected with Wolbachia before knock-down; no added drug
Measurement: 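Imaged fluorescence in situ signal for Wolbachia 23S rRNA per DAPI-counted host cell, given as a robust z-score within each plate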
Scale: Wolbachia per cell robust z: higher = more Wolbachia per host cell than the plate typical
Active means: 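Hit when robust z is 1.5 or more, or -1.5 or less, in at least two of three replicates; excludes dsRNAs with several or no targets, genes not expressed in JW18 and well A1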
In all, the deposit lists about 24,000 reagents; this is an unselected part of those with a known target gene and a result. Over the whole deposit, about 1,210 (5%) were called active. 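Inactive calls also include excluded dsRNAs with several or no targets, genes unexpressed in JW18, and well A1, regardless of score.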 Names joined by + are all predicted targets of the reagent. Reagent sequences are not shown.

How did the screen score sgl [DRSC21431]?
Wolbachia per cell robust z, rep 1: 0.937; Wolbachia per cell robust z, rep 2: 0.346; Wolbachia per cell robust z, rep 3: 1.41; outcome: inactive

What is on record for sgl [DRSC29308]?
Wolbachia per cell robust z, rep 1: 0.452; Wolbachia per cell robust z, rep 2: 0.115; Wolbachia per cell robust z, rep 3: 0.414; outcome: inactive

For sgl [DRSC40740], what does the deposit list?
Wolbachia per cell robust z, rep 1: -1.31; Wolbachia per cell robust z, rep 2: -0.508; Wolbachia per cell robust z, rep 3: -0.0847; outcome: inactive

Which result is listed for asRNA:ASTR + Rga [DRSC12364]?
Wolbachia per cell robust z, rep 1: -0.955; Wolbachia per cell robust z, rep 2: 0.258; Wolbachia per cell robust z, rep 3: -3.74; outcome: inactive

For mkg-p [DRSC10777], what does the deposit list?
Wolbachia per cell robust z, rep 1: 0.403; Wolbachia per cell robust z, rep 2: 0.678; Wolbachia per cell robust z, rep 3: 0.362; outcome: inactive

How did the screen score CG34195 [DRSC06909]?
Wolbachia per cell robust z, rep 1: 0.349; Wolbachia per cell robust z, rep 2: 0.591; Wolbachia per cell robust z, rep 3: 0.51; outcome: inactive

With CG8192 [DRSC24995], what was measured?
Wolbachia per cell robust z, rep 1: -0.0901; Wolbachia per cell robust z, rep 2: -0.54; Wolbachia per cell robust z, rep 3: -1.41; outcome: inactive

What did the screen give for Rpn12R [DRSC09842]?
Wolbachia per cell robust z, rep 1: -0.101; Wolbachia per cell robust z, rep 2: 0.398; Wolbachia per cell robust z, rep 3: -0.597; outcome: inactive

How did the screen score Crtc [DRSC23130]?
Wolbachia per cell robust z, rep 1: 1.17; Wolbachia per cell robust z, rep 2: 0.926; Wolbachia per cell robust z, rep 3: 2.95; outcome: inactive

With Crtc [DRSC26174], how do the results read?
Wolbachia per cell robust z, rep 1: -0.0929; Wolbachia per cell robust z, rep 2: -0.528; Wolbachia per cell robust z, rep 3: 0.608; outcome: inactive

For CG13056 [DRSC09937], how do the results read?
Wolbachia per cell robust z, rep 1: 0.194; Wolbachia per cell robust z, rep 2: 0.203; Wolbachia per cell robust z, rep 3: -0.0911; outcome: inactive

Which result is listed for CG13056 [DRSC29419]?
Wolbachia per cell robust z, rep 1: -0.0231; Wolbachia per cell robust z, rep 2: 0.474; Wolbachia per cell robust z, rep 3: -2.59; outcome: inactive

For lncRNA:CR43337 [DRSC07893], how do the results read?
Wolbachia per cell robust z, rep 1: -0.166; Wolbachia per cell robust z, rep 2: -0.308; Wolbachia per cell robust z, rep 3: 0.242; outcome: inactive

Which result is listed for lncRNA:CR43337 [DRSC25126]?
Wolbachia per cell robust z, rep 1: -0.177; Wolbachia per cell robust z, rep 2: 3.08; Wolbachia per cell robust z, rep 3: 0.849; outcome: inactive

What did the screen give for Vajk3 [DRSC01883]?
Wolbachia per cell robust z, rep 1: -0.372; Wolbachia per cell robust z, rep 2: 0.712; Wolbachia per cell robust z, rep 3: 0.166; outcome: inactive

With Vajk3 [DRSC25405], what was measured?
Wolbachia per cell robust z, rep 1: -0.356; Wolbachia per cell robust z, rep 2: -0.147; Wolbachia per cell robust z, rep 3: 0.615; outcome: inactive

With CG15399 [DRSC38934], what does the deposit list?
Wolbachia per cell robust z, rep 1: -0.463; Wolbachia per cell robust z, rep 2: 0.558; Wolbachia per cell robust z, rep 3: -0.0635; outcome: inactive

How did the screen score MCTS1 [DRSC18393]?
Wolbachia per cell robust z, rep 1: -0.089; Wolbachia per cell robust z, rep 2: -0.369; Wolbachia per cell robust z, rep 3: 0.261; outcome: inactive

How did the screen score BRWD3 [DRSC15369]?
Wolbachia per cell robust z, rep 1: -0.218; Wolbachia per cell robust z, rep 2: -9.88; Wolbachia per cell robust z, rep 3: -0.709; outcome: inactive

What is on record for BRWD3 [DRSC16032]?
Wolbachia per cell robust z, rep 1: 1.25; Wolbachia per cell robust z, rep 2: -1.86; Wolbachia per cell robust z, rep 3: 1.41; outcome: inactive

With Chpf [DRSC19491], what was measured?
Wolbachia per cell robust z, rep 1: -2.46; Wolbachia per cell robust z, rep 2: 0.285; Wolbachia per cell robust z, rep 3: -3.49; outcome: active

What did the screen give for Chpf [DRSC19893]?
Wolbachia per cell robust z, rep 1: 0.298; Wolbachia per cell robust z, rep 2: -9.1; Wolbachia per cell robust z, rep 3: 0.151; outcome: inactive

With psq [DRSC23094], what does the deposit list?
Wolbachia per cell robust z, rep 1: 0.357; Wolbachia per cell robust z, rep 2: 0.765; Wolbachia per cell robust z, rep 3: -0.161; outcome: inactive

What is on record for psq [DRSC38444]?
Wolbachia per cell robust z, rep 1: 0.0961; Wolbachia per cell robust z, rep 2: 0.855; Wolbachia per cell robust z, rep 3: -0.579; outcome: inactive

Looked up above:
Value for CG13056 [DRSC09937] in “Wolbachia per cell robust z, rep 2”: 0.203
Result for Vajk3 [DRSC01883] in “Wolbachia per cell robust z, rep 3”: 0.166
